Compound potency records, mixed from different reports. Data source: NIAID ChemDB in PubChem.

All rows: growth or infection tests; agent: Candida albicans

Conditions beyond the fields shown may differ between rows. MIC50, MIC90 and the like: level of inhibition, or share of isolates inhibited. An empty or dashed field is not shown.

structure,strain,method,measure,result
CCn1cc[n+](COCCCCCCOC[n+]2ccn(CC)c2)c1,ATCC 90028,agar diffusion,MIC100,1634 µM
Cc1ccc(-c2c3c(N)c4c(nc3nc3c2c(C)nn3-c2ccccc2)CCCC4)cc1,CCC 126,broth dilution / absorbance,MIC80,31.2 µg/mL
C[C@@H](n1cnc2cc(OCCF)ccc2c1=O)[C@](O)(Cn1cncn1)c1ccc(F)cc1F,406 strains,-,MIC,0.07 µg/mL
CO[C@H]1C[C@@H]2CC[C@@H](C)[C@@](O)(O2)C(=O)C(=O)N2CCCC[C@H]2C(=O)O[C@H]([C@H](C)C[C@@H]2CC[C@@H](C(=O)ON3CCCCC3)[C@H](OC)C2)CC(=O)[C@H](C)/C=C(\C)[C@@H](O)[C@@H](OC)C(=O)[C@H](C)C[C@H](C)CCCC/C=C/1C,579A,-,MIC,>100 µg/mL
C[C@@H](n1cnc2cc(OCC(F)(F)F)ccc2c1=O)[C@](O)(Cn1cncn1)c1ccc(F)cc1F,60 strains,-,MIC,0.31 µg/mL
CCCCCCCn1cc[n+](COCCCCOC[n+]2ccn(CCCCCCC)c2)c1,ATCC 90028,agar diffusion,MIC100,10 µM
C[C@H](n1nnnc1CCN1CCN(c2ccccc2Cl)CC1)[C@](O)(Cn1cncn1)c1ccc(F)cc1F,V-01-191A-261 (resistant),-,MIC,8 µg/mL
CCCn1cc[n+](COCCCCCCOC[n+]2ccn(CCC)c2)c1,ATCC 90028,agar diffusion,MIC100,712 µM
Cc1c(O)cccc1C(=O)N[C@@H](CSc1ccccc1)[C@H](O)CN1C[C@H]2CCCC[C@H]2C[C@H]1C(=O)NC(C)(C)C,I132A,-,MIC,64 µg/mL
Clc1ccc2c(c1)OCC(n1cnnc1)/C2=N\OCc1ccccc1,ATCC 10231,-,MFC,>64 µg/mL
C[C@@H](n1cnc2cc(-n3ncnn3)ccc2c1=O)[C@](O)(Cn1cncn1)c1ccc(F)cc1F,406 strains,-,MIC,≤0.03 µg/mL
CO[C@@H]1C[C@H](C[C@@H](C)[C@@H]2CC(=O)[C@H](C)/C=C(\C)[C@@H](O)[C@@H](OC)C(=O)[C@H](C)C[C@H](C)/C=C/C=C/C=C(\C)[C@@H](N(O)C(=O)N(C)C)C[C@@H]3CC[C@@H](C)[C@@](O)(O3)C(=O)C(=O)N3CCCC[C@H]3C(=O)O2)CC[C@H]1C(=O)ON(C)O,38247,-,MIC,100 µg/mL
Cc1nn(-c2ccccc2)c2nc3nc4c(c(N)c3c(-c3ccc(Cl)cc3)c12)CCCCC4,ATCC 10231,broth dilution / absorbance,MIC80,125 µg/mL
CC(/C=C/C=C(\C)C(O)C(C)C(=O)O[C@H]1C[C@@H](C)C=C2C=C[C@]3(C)O[C@@H](O)CC(=O)[C@]3(C)[C@H]21)=C\C=C\C(=O)O,CCH442,-,MIC,0.78 µg/mL
O=[N+]([O-])c1ccc(N2CCN(CCc3nnnn3CC(O)(Cn3cncn3)c3ccc(F)cc3F)CC2)cc1,-,-,MIC,4 µg/mL
Cc1ccc(-c2c3c(N)c4c(nc3nc3c2c(C)nn3-c2ccccc2)CCCCC4)cc1,CCC 125,broth dilution / absorbance,MIC100,125 µg/mL
C[C@@H](n1cnc2cc(I)ccc2c1=O)[C@](O)(Cn1cncn1)c1ccc(F)cc1F,76 strains,-,MIC,0.07 µg/mL
C=CCc1ccc(OC)c(OC)c1,3054,turbidity,MIC90,350 µg/mL
C[C@H]1[C@H](O)[C@@H](C)/C=C/C=C/C=C/C=C/C=C/C=C/C=C/[C@H](O[C@@H]2O[C@H](C)[C@@H](O)[C@H](N)[C@@H]2O)C[C@@H]2O[C@](O)(C[C@@H](O)C[C@@H](O)CC[C@H](O)[C@@H](O)C[C@@H](O)CC(=O)O[C@H]1C)C[C@H](O)[C@H]2C(=O)O,ATCC64553,-,MIC,0.5 µg/mL
C[C@H](n1nnnc1CCN1CCN(c2ccccn2)CC1)[C@](O)(Cn1cncn1)c1ccc(F)cc1F,-,-,MIC,8 µg/mL
CCCCCCCCn1cc[n+](COCCCOC[n+]2ccn(CCCCCCCC)c2)c1,ATCC 90028,agar diffusion,MIC100,9 µM
CO[C@@H]1C[C@H](C[C@@H](C)[C@@H]2CC(=O)[C@H](C)/C=C(\C)[C@@H](O)[C@@H](OC)C(=O)[C@H](C)C[C@H](C)/C=C/C=C/C=C(\C)[C@H](N(O)C(N)=O)C[C@@H]3CC[C@@H](C)[C@@](O)(O3)C(=O)C(=O)N3CCCC[C@H]3C(=O)O2)CC[C@H]1C(=O)ON(C)O,62376,-,MIC,100 µg/mL
O=c1c(OC2CCCC2)c(N2CCN(S(=O)(=O)NCc3ccccc3)CC2)cnn1-c1cccc(Cl)c1,C697,broth dilution,MIC,0.125 µg/mL
Fc1cccc(CO/N=C2\c3ccccc3OCC2n2cncn2)c1,ATCC 10231,-,MIC,64 µg/mL
C[C@@H](n1cnc2cc(/C(N)=N/S(N)(=O)=O)ccc2c1=O)[C@](O)(Cn1cncn1)c1ccc(F)cc1F,60 strains,-,MIC,10 µg/mL
O=c1c(N2CCOCC2)c(N2CCN(S(=O)(=O)Cc3ccccc3)CC2)cnn1-c1ccccc1,C-43,broth dilution,MIC,200 µg/mL
C[C@@H](n1cnc2ccc(F)cc2c1=O)[C@](O)(Cn1cncn1)c1ccc(F)cc1F,76 strains,-,MIC,40 µg/mL
Clc1ccc(CO/N=C2/c3ccc(Cl)cc3OCC2n2cncn2)c(Cl)c1,ATCC 10231,-,MFC,>64 µg/mL
O=[N+]([O-])c1ccc(N2CCN(CCc3nnn(CC(O)(Cn4cncn4)c4ccc(F)cc4F)n3)CC2)cc1,-,-,MIC,4 µg/mL
OC(Cn1cncn1)(Cn1cncn1)c1ccc(F)cc1F,60 strains,-,MIC,2.5 µg/mL
COc1ccccc1N1CCN(CCc2nnnn2[C@@H](C)[C@](O)(Cn2cncn2)c2ccc(F)cc2F)CC1,V-01-191A-261 (resistant),-,MIC,8 µg/mL
Cc1ccc(-c2c3c(N)c4c(nc3nc3c2c(C)nn3-c2ccccc2)CCC4)cc1,CCC 125,broth dilution / absorbance,MIC80,62.5 µg/mL
Clc1ccc(CO/N=C2\c3ccccc3OCC2n2cncn2)cc1Cl,ATCC 10231,-,MFC,>64 µg/mL
C[C@@H](NC(=O)c1ccc(Cl)cc1NC=O)[C@](O)(Cn1cncn1)c1ccc(F)cc1F,406 strains,-,MIC,≤0.03 µg/mL
CCCCCn1cc[n+](COCCCCCOC[n+]2ccn(CCCCC)c2)c1,ATCC 90028,agar diffusion,MIC100,168 µM
Cc1nc2cc(Cl)ccc2c(=O)n1[C@H](C)[C@](O)(Cn1cncn1)c1ccc(F)cc1F,406 strains,-,MIC,0.31 µg/mL
CO[C@@H]1C[C@H](C[C@@H](C)[C@@H]2CC(=O)[C@H](C)/C=C(\C)[C@@H](O)[C@@H](OC)C(=O)[C@H](C)C[C@H](C)/C=C/C=C/C=C(\C)[C@@H](N(OC)C(=O)N(C)C)C[C@@H]3CC[C@@H](C)[C@@](O)(O3)C(=O)C(=O)N3CCCC[C@H]3C(=O)O2)CC[C@H]1C(=O)ON(C)O,38247,-,MIC,50 µg/mL

The last 2 rows once more:

structure,strain,method,measure,result
Cc1nc2cc(Cl)ccc2c(=O)n1[C@H](C)[C@](O)(Cn1cncn1)c1ccc(F)cc1F,406 strains,-,MIC,0.31 µg/mL
CO[C@@H]1C[C@H](C[C@@H](C)[C@@H]2CC(=O)[C@H](C)/C=C(\C)[C@@H](O)[C@@H](OC)C(=O)[C@H](C)C[C@H](C)/C=C/C=C/C=C(\C)[C@@H](N(OC)C(=O)N(C)C)C[C@@H]3CC[C@@H](C)[C@@](O)(O3)C(=O)C(=O)N3CCCC[C@H]3C(=O)O2)CC[C@H]1C(=O)ON(C)O,38247,-,MIC,50 µg/mL